Consider 18 molecules from patent publication US20090191571A1, “Isolation and Detection of Pathogenic Prions” (priority 2005, published 2009).

One assay concerns the target T1, PrP^Sc (pathogenic mouse prion protein, RML, in infected Balb-c mouse brain homogenate) (mouse), P04925.
As to DDDAGAAAAGAVVGGLGGYMLGSAMDDD [Peptide reagent SEQ ID NO:86], the ELISA A405nm stood at 0.227 A405nm.

GGGKKRPKPGGGQWNKPSKPKTN [Peptide reagent SEQ ID NO:81] displayed an ELISA A405nm of 1.25 A405nm.

As to KKKAGAAAAGAVVGGLGGYMLGSAMKKK [Peptide reagent SEQ ID NO:84], the ELISA A405nm is 0.268 A405nm.

The molecule GGGQWNKPSKPATN [Peptide reagent SEQ ID NO:94] showed an ELISA A405nm of 0.26 A405nm.

Turning to QWNKPSKPKTNGGGQWNKPSKPKTN [Peptide reagent SEQ ID NO:51], the ELISA A405nm was 0.923 A405nm.

For QWNKPSKPKTNLKHVGGG [Peptide reagent SEQ ID NO:77], the ELISA A405nm is 0.839 A405nm.

GGGKKRPKPGGWNTGGSRYPGQGS [Peptide reagent SEQ ID NO:66]: the ELISA A405nm came to 0.533 A405nm.

In turn, GGGWNKPSKPKT [Peptide reagent SEQ ID NO:75] came in with an ELISA A405nm of 0.247 A405nm.

Molecule GGGQWNKPSAPKTN [Peptide reagent SEQ ID NO:93] displayed an ELISA A405nm of 0.25 A405nm.

The molecule DDDAGAAAAGAVVGGLGGYMLGSAM [Peptide reagent SEQ ID NO:83] registered an ELISA A405nm of 0.237 A405nm.

For the molecule QWNKPSKPKTNGGG [Peptide reagent SEQ ID NO:50], the ELISA A405nm came out at 0.932 A405nm.

Turning to KKKAGAAAAGAVVGGLGGYMLGSAM [Peptide reagent SEQ ID NO:57], the ELISA A405nm stood at 0.901 A405nm.

For GGGAGAAAAGAVVGGLGGYMLGSAM [Peptide reagent SEQ ID NO:78], the ELISA A405nm is 0.259 A405nm.

Turning to GGGQWNKPSKAKTN [Peptide reagent SEQ ID NO:91], the ELISA A405nm is 0.256 A405nm.

A further assay has as its target T1, PrP^Sc (pathogenic mouse prion protein, …). The source holds these as a separate data set.
Turning to GGGQWNKPSKPKAN [Peptide reagent SEQ ID NO:102], the ELISA A405nm was found to be 0.234 A405nm.

GGGQWNKASKPKTN [Peptide reagent SEQ ID NO:99]: the ELISA A405nm turned out to be 0.25 A405nm.

Molecule GGGQWNKPSKPATN [Peptide reagent SEQ ID NO:94] displayed an ELISA A405nm of 0.23 A405nm.

In the case of GGGQWNKPSAPKTN [Peptide reagent SEQ ID NO:93], the ELISA A405nm was 0.256 A405nm.

GGGQWNKPAKPKTN [Peptide reagent SEQ ID NO:101] registered an ELISA A405nm of 0.356 A405nm.

Regarding GGGQWAKPSKPKTN [Peptide reagent SEQ ID NO:100], the ELISA A405nm turned out to be 0.376 A405nm.

GGGQWNKPSKAKTN [Peptide reagent SEQ ID NO:91] came in with an ELISA A405nm of 0.26 A405nm.
